Common to all, as to test: pseudovirus neutralization IC50; higher = weaker neutralization
For assay [1], the target named is SARS-CoV-2 Omicron BA.1 spike pseudovirus. On the procedure:
(§1)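 Single-round VSV luciferase pseudovirus mixed with antibody dilutions for 1 h and put on Huh-7 cells for about a day; IC50 from the dose curve.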

In assay [2] the target is SARS-CoV-2 Omicron BA.2 spike pseudovirus. On the procedure: as §1
Assay [3] has as its target SARS-CoV-2 Omicron BA.2.75 spike pseudovirus. Here is the method: as §1
In assay [4] the target is SARS-CoV-2 Omicron BA.5 spike pseudovirus. Here is the method: as §1
Assay [5] concerns the target SARS-CoV-2 Omicron BQ.1.1 spike pseudovirus. Here is the method: as §1
Assay [6] addresses SARS-CoV-2 Omicron XBB spike pseudovirus. On the procedure: as §1
Assay [7] concerns the target SARS-CoV-2 early D614G spike pseudovirus. Here is the method:
as §1

Numbering of substitutions follows the chain as printed. Human monoclonal antibodies against the spike receptor-binding domain (heavy:light variable regions). IC50 against pseudoviruses bearing the spike of naturally observed variants; lower = stronger; >10 µg/ml means not reached at the top dose. No active / inactive call. The stated detection limit is 0.0005 µg/ml; values near or below 0.001 µg/ml lie at the floor of the assay.

B1: BD58-0587 (protein)
chain 1: QVHLVQSGAAVKKPGSSVKVSCKASGGSFSSHTISWVRQAPGQGLEWMGKIIPFLSVANYAQRFQGRVTITADESTSTAYMELNSLTSEDTAMYYCARDRDGYFGAFDMWGQGTMVTVSA
chain 2: QSVLTQPPSVSGAPGQRVTISCTGSGSNIGAGYDVHWYQQLPGTAPKVLIYGNNHRPSGVPDRFSGSKSDTSASLAIAGLQAEDEADYFCQSYDSSLSDVIFAGGTKLTVL
As to B1, the “pseudovirus neutralization IC50” value in assay [1] was 0.297 µg/mL; in assay [2], 0.102 µg/mL; in assay [3], 0.212 µg/mL; in assay [4] it was greater than 10 µg/mL; in assay [5], greater than 10 µg/mL; in assay [6], greater than 10 µg/mL. For the same molecule, in assay [7], the “pseudovirus neutralization IC50” value amounted to 1.55 µg/mL.

B2: BD58-0586 (protein)
chain 1: QLRLQESGPGLVKPSETLSLTCTVSGGSISGTSYYWGWIRQPPGKGLEWIASIYYSGSTYYNPSFKSRVTMSVDTSKNQFSLKLSSVTAADTAVYYCARLPDTYCSDGSCYRGWFDPWGQGTLVTVSS
chain 2: DIQMTQSPSSLSASVGDRVTITCRASQSIGRYLNWYQQKPGKAPRLMMYSASNLQSGVPSRFSGSRSGTDFTLSISNLQPEDFATYYCQQSYSASWTFGQGTKVEVK
In the case of B2, the “pseudovirus neutralization IC50” value in assay [1], in assay [2], in assay [3], in assay [4], in assay [5] and in assay [6] was greater than 10 µg/mL throughout. Also, the “pseudovirus neutralization IC50” value in assay [7] is greater than 10 µg/mL.

B3: BD56-1223 (protein)
chain 1: QVQLLQSGAEVKKPGSSVRVSCKASGGTLIDYALSWVRQAPGQGLEWMGGIVPILDITNYAQKFQGRVTITADKSTSTAYMELSSLRSEDTAVYFCATGVQYCSGGSCNSAYFDSWGQGTLVTVSS
chain 2: EIVLTQSPGTLSLSPGERATLSCRASQSISSSHLAWYQQKPGQAPRLLIYGASSRATGIPDRFSGSGSGTDFTLTISRLAPEDFAVYYCQQYGSSPQRTFGQGTKVEIK
Regarding B3, the “pseudovirus neutralization IC50” value in assay [1] is 0.00453 µg/mL; in assay [2] it was 0.00121 µg/mL; in assay [3], 0.00439 µg/mL; in assay [4], 0.815 µg/mL; in assay [5] it was greater than 10 µg/mL; in assay [6], greater than 10 µg/mL. Further, the “pseudovirus neutralization IC50” value in assay [7] came out at 0.0998 µg/mL.

B4: BD56-1231 (protein)
chain 1: HVQLVQSGAEVKKPGSSMKVSCKASGGTMINYAISWVRQAPGQGLEWMGDIVPILDATNIAQKFRGRVSITADKSTNTAYMEVSGLTSEDTAVYFCAAGGQYCGGGDCFSSYFDYWGEGSLVTVSS
chain 2: B3 chain 2 with E1D, S32T, H33Y, T75S, S77T, S94N
For B4, the “pseudovirus neutralization IC50” value was greater than 10 µg/mL in assay [1]; 0.674 µg/mL in assay [2]; 0.791 µg/mL in assay [3]; 2.29 µg/mL in assay [4]; greater than 10 µg/mL in assay [5]; greater than 10 µg/mL in assay [6]. Moreover, in assay [7], the “pseudovirus neutralization IC50” value was greater than 10 µg/mL.

B5: BD56-1243 (protein)
chain 1: B3 chain 1 with L5V, D31N, A61S, Q62P, Q101R
chain 2: B3 chain 2 with Q39H
As for B5, the “pseudovirus neutralization IC50” value is 0.26 µg/mL in assay [1]; 0.0133 µg/mL in assay [2]; 0.0604 µg/mL in assay [3]; greater than 10 µg/mL in assay [4]; greater than 10 µg/mL in assay [5]; greater than 10 µg/mL in assay [6]. Also, the “pseudovirus neutralization IC50” value in assay [7] was 0.001 µg/mL.

B6: BD56-1230 (protein)
chain 1: QVQLVQSGAEVKKPGSSVKVSCKSFGGTLIDYAVSWVRQAPGEGLEWMGGIVPILDTTNYAQKFQGRVSITADKSTSTAYMELSGLTSEDTAVYYCAAGGQYCGGDRCYSSYFDYWGQGALVTVSS
chain 2: B3 chain 2 with E1D, S32T
In the case of B6, the “pseudovirus neutralization IC50” value in assay [1] was 0.226 µg/mL; in assay [2], 0.151 µg/mL; in assay [3], 0.0987 µg/mL; in assay [4], 2.92 µg/mL; in assay [5], 1.88 µg/mL; in assay [6], greater than 10 µg/mL. The “pseudovirus neutralization IC50” value in assay [7] is 1.59 µg/mL.

B7: BD56-1235 (protein)
chain 1: QVQLVQSGPEVKKPGSSVKVSCKASGGTLINYAVTWVRQAPGQGLEWMGGIVPILDMTNYAQRFQGRVTVTADKSTNTAFMELSSLRSEDTAVYYCATGGPFCSGTICYSSYSDSWGQGTLVTVSS
chain 2: B3 chain 2 with I29L, Q39H, G51A, S54N
Consider B7, for which the “pseudovirus neutralization IC50” value in assay [1] was 0.444 µg/mL; in assay [2], 0.0467 µg/mL; in assay [3] it was 0.236 µg/mL; in assay [4], greater than 10 µg/mL; in assay [5] it was greater than 10 µg/mL; in assay [6], greater than 10 µg/mL. Besides, the “pseudovirus neutralization IC50” value in assay [7] is greater than 10 µg/mL.

B8: BD56-1246 (protein)
chain 1: QVQLVESGGGVVQPGRSLRLSCAASGFTFSNYDMHWVRQAPGKGLEWVAVISYDGSSKFYADSVKGRFTVSRDNSKNTLYLQMNSLRIEDTALYFCAKDFGHQLVDFFDFWGQGTLVTVSS
chain 2: DIQMTQSPSSLSASVGDRVTITCRASQSIGTYLNWYQQKPGKAPILLIYTASSLHTGVPSRFSGSGSGTDFTLTISSLQPEDLATYYCQQSYVTPPWTFGHGTKVEIK
As for B8, the “pseudovirus neutralization IC50” value was found to be 1.65 µg/mL in assay [1]; 1.65 µg/mL in assay [2]; 2.43 µg/mL in assay [3]; 1.67 µg/mL in assay [4]; 2.25 µg/mL in assay [5]; 1.39 µg/mL in assay [6]. The “pseudovirus neutralization IC50” value in assay [7] is greater than 10 µg/mL.

B9: BD56-1229 (protein)
chain 1: QVQLVQSGAEVKKPGASLKVSCKASGYSFTSYYIHWVRQAPGQGLEWVGLINPTGGYTYAQKFEGRVTMTSDSSTSTVYMEMRSLRSEDTAVYYCARDIVLIPASSGVDVWGQGTTVTVCS
chain 2: EIVLTQSPATLSLSPGERATLSCRASQSVSTSLAWYQHKPGQTPRLLIYDASNRATGIPARFSGSGSGTDFTLTISSLEAEDFAVYYCQQRSSWPRIFSFGPGTKVDVK
As to B9, the “pseudovirus neutralization IC50” value in assay [1] was 3.24 µg/mL; in assay [2], 1.32 µg/mL; in assay [3], 4.56 µg/mL; in assay [4] it was 1.22 µg/mL; in assay [5], 1.34 µg/mL; in assay [6], 1.07 µg/mL. For the same molecule, the “pseudovirus neutralization IC50” value in assay [7] is greater than 10 µg/mL.

B10: BD56-1192 (protein)
chain 1: QVQLVESGGGVVQPGRSLRLSCAASGFNFSSYAMHWVRQAPGKGLEWVAVISYDGSNKYYADSVKGRFPMSRDNSKKTLYLQMNRLRAEDTAVYYCARDLDLWFGEGYYGMDVWGQGTTVTVSS
chain 2: QSALTQPASVSGSPGQSITISCTGTSSDVGDYNYVSWYQQHPGKAPKLMIYDVSDRPSGVSNRFSGSKSGNTASLTISGLQAEDEADYYCNSYTSSGTRVFGGGTKLTVL
Turning to B10, the “pseudovirus neutralization IC50” value came to 0.544 µg/mL in assay [1]; 0.49 µg/mL in assay [2]; 0.167 µg/mL in assay [3]; 0.108 µg/mL in assay [4]; 0.539 µg/mL in assay [5]; 1.94 µg/mL in assay [6]. The “pseudovirus neutralization IC50” value in assay [7] worked out at 9.84 µg/mL.

B11: BD56-1219 (protein)
chain 1: EVRVVESGGRLVKPGGSLRLSCAASGFNFRTYNMNWLRQAPGKGPEWVSSIGASGSYRNYADSVRGRFTISRDNAKNSLYLQMNSLRADDTAVYYCARDSDWGGDILTGSSHIFDYWGQGTVVTVSS
chain 2: DIQMTQSPSSLSASVGDRVTITCRASQTISNSLNWYHQKPGRAPKLLIYGAISSQSGVPSRFSGSGSGTDFTLTISSLQLEDFATYYCQQSYSAPPTFGGGTKVEIK
Take B11: the “pseudovirus neutralization IC50” value in assay [1] was 1.09 µg/mL; in assay [2], 1.48 µg/mL; in assay [3], 1.8 µg/mL; in assay [4] it was 1.24 µg/mL; in assay [5], greater than 10 µg/mL; in assay [6] it was 1.08 µg/mL. Moreover, in assay [7], the “pseudovirus neutralization IC50” value is greater than 10 µg/mL.

B12: BD56-1245 (protein)
chain 1: QVQLVQSGAEVKKPGASVKVSCKASGYMFTSYGISWVRQAPGQGLEWIGWISAYNGDTKYAHKVQDRLTMTTDTSTSTAYMELRSLRYDDTAVYYCARDFGEISGSENHDYWGQGTLVTVSS
chain 2: EIVLTQSPATLSLSPGERATLSCRASQSVSIYLAWFQQKPGQAPRLLIYHASTRATGIPGRFSGSGSGTDFTLTISSLEPEDFAVYYCQHRSNWPFFGQGTRLEIK
With B12, the “pseudovirus neutralization IC50” value in assay [1] was 0.177 µg/mL; in assay [2], 0.0794 µg/mL; in assay [3], 0.158 µg/mL; in assay [4] it was 1.93 µg/mL; in assay [5], greater than 10 µg/mL; in assay [6], 1.64 µg/mL. Also, in assay [7], the “pseudovirus neutralization IC50” value was determined as 0.0632 µg/mL.
